Values from PubChem BioAssay AID1259414 (Drosophila RNAi Screening Center, 2018)
The deposit covers about 24,000 reagents; this is an unselected part of those with a known target gene and a result. In the full data, about 1,210 (5%) were called active. 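Inactive calls also include excluded dsRNAs with several or no targets, genes unexpressed in JW18, and well A1, regardless of score.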 Reagents against one gene are numbered here. Names joined by + are all predicted targets of the reagent.

- Aim: 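Genome-wide screen for host control of endosymbiont load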 (primary screen)
- Cells: Drosophila JW18 cells infected with Wolbachia
- Reagents: long dsRNA against Drosophila genes, 0.25 µg dsRNA per well of a 384-well plate
- Duration: 5 days
- Treatment: cells persistently infected with Wolbachia before knock-down; no added drug
- Measured: 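Imaged fluorescence in situ signal for Wolbachia 23S rRNA per DAPI-counted host cell, given as a robust z-score within each plate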
- Direction: Wolbachia per cell robust z: higher = more Wolbachia per host cell than the plate typical
- Hit rule: 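Active if absolute robust z reaches 1.5 in two or more of three replicates, leaving out multi- or no-target dsRNAs, genes unexpressed in JW18 and A1 wells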

After knock-down of CG18128 (GeneID 37756) the results were Wolbachia per cell robust z, rep 1 = 0.243; Wolbachia per cell robust z, rep 2 = -0.252; Wolbachia per cell robust z, rep 3 = -0.5; inactive.
Against CG34045 (GeneID 3885656) the deposit lists Wolbachia per cell robust z, rep 1 = -2.03; Wolbachia per cell robust z, rep 2 = -0.338; Wolbachia per cell robust z, rep 3 = -0.449; inactive.
Silencing of Tip60 (GeneID 31362) gave: Wolbachia per cell robust z, rep 1 = -0.0443; Wolbachia per cell robust z, rep 2 = -7.12; Wolbachia per cell robust z, rep 3 = 1.75; inactive.
Silencing of feo (GeneID 32015) #1 resulted in: Wolbachia per cell robust z, rep 1 = 0.946; Wolbachia per cell robust z, rep 2 = 0.739; Wolbachia per cell robust z, rep 3 = 0.832; inactive.
feo (GeneID 32015) #2 scored Wolbachia per cell robust z, rep 1 = 0.565; Wolbachia per cell robust z, rep 2 = 1.53; Wolbachia per cell robust z, rep 3 = 2.6; active.
Depletion of CarT (GeneID 35334) #1 came out at: Wolbachia per cell robust z, rep 1 = -4.16; Wolbachia per cell robust z, rep 2 = -0.639; Wolbachia per cell robust z, rep 3 = -0.413; inactive.
Knock-down of CarT (GeneID 35334) #2 gave: Wolbachia per cell robust z, rep 1 = 0.4; Wolbachia per cell robust z, rep 2 = 0.83; Wolbachia per cell robust z, rep 3 = 0.925; inactive.
After knock-down of Vsx2 (GeneID 31469) #1, the screen gave Wolbachia per cell robust z, rep 1 = 0.513; Wolbachia per cell robust z, rep 2 = -3.2; Wolbachia per cell robust z, rep 3 = -0.846; inactive.
Silencing of Vsx2 (GeneID 31469) #2 came out at: Wolbachia per cell robust z, rep 1 = -0.809; Wolbachia per cell robust z, rep 2 = -0.00866; Wolbachia per cell robust z, rep 3 = 1.44; inactive.
For Vsx2 (GeneID 31469) #3, the values are Wolbachia per cell robust z, rep 1 = -0.583; Wolbachia per cell robust z, rep 2 = -6.05; Wolbachia per cell robust z, rep 3 = 0.0785; inactive.
CG3348 (GeneID 50082) showed Wolbachia per cell robust z, rep 1 = 0.752; Wolbachia per cell robust z, rep 2 = 0.266; Wolbachia per cell robust z, rep 3 = 0.48; inactive.
For Fsn + CG17059, the entry reads Wolbachia per cell robust z, rep 1 = 1.69; Wolbachia per cell robust z, rep 2 = 1.6; Wolbachia per cell robust z, rep 3 = 0.56; inactive.
